The target in this data set is T1, Rex (Bacillus cereus ATCC 14579) (UniProt Q81IS6).
T1 sequence (looked up): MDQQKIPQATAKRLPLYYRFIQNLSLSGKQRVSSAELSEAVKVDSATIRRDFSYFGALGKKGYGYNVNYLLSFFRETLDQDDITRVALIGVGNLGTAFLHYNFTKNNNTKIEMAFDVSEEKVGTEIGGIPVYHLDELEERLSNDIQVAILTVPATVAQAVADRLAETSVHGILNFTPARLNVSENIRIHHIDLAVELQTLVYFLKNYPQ
In words: EMSA. The note with it: 10 mM Tris-HCl pH 7.5, 50 mM KCl, 2.5% glycerol, 5 mM MgCl2, 5 mg/L poly(dI-dC), 30 min at 37 C, 6% native PAGE, recombinant protein, probe letters rebuilt from the primers and the genome.

A negative result means that nothing was seen under these conditions. Where a protein sequence is shown, tags need not be part of it. Construct, isoform or probe ends are uncertain for at least one entry. Weaker means in comparison with the reference protein, sequence or condition of that experiment.

Turning to “CAAGAATCGTTTCTGCACCGTATAATTTCGAAAGCGCGTTTACTTGTAATAAAATCAATGTTTTCACCTCAAATAATTTCTTAACTTTGCCATGTTTATATTTCTCAATCATACTAAAAATAGTGTATAGTTTAAAATAAAGAGAGAATACTTCTTCTCTTTATTATACAAGGAATTTAATGAGTGCTAAACTTCTGTATTTGATTAAAGTATATGAATAAAGATAGGAAGAGAGGAGAGGTCATATGGATCAGCAAAAGATTCCACAAGCCACTGCTAAAAGATTGCCTCTATACTATCGATTTATCCAAAACTTATCTCTTTCTGGTAAGC (double strand) [rex promoter region]”, for the setting “increasing Rex, 2 nM DNA, residues 1-209, label: 5' biotin (forward strand)”, the binding result is listed as “no binding”.

As for “GGATCCAACTAATCCAGTACCGATAATTGCAATTTTTCTTGTATGTCTTTTCATAGCAATCTCTCCTAATTGATCATATAATCTATTTCTTTTGTTCTTTACATTCTTAATTATAGAGGTTCCCACGATAGAAACCATGGATACTTTGCGAAATGTTGAACAAAGTTTTTGTCCTTTTTGTGAATTGTCATATTCCATTTTCGTCATATTTGTTACAACTGGAAAAATATTTATTATGTATTTATTGACATATACAAAAAGAAAACGAGCGAATAAATTCGCTCGTTTTCTTTTTCCTGTTATTCCGCACTTAATTGGCTTTTTAATTGCTGTACAATCATCGGATTAGCAGGT (double strand) [ldhA promoter region]”, the binding result is listed as “binds more weakly” (10 mM NADH (binding impaired), 0.6 uM Rex, 2 nM DNA, residues 1-209, label: 5' biotin (forward strand)); “binds” (100 mM NAD+ (no interference), 0.6 uM Rex, 2 nM DNA, residues 1-209, label: 5' biotin (forward strand)); “binds more weakly” (NAD+/NADH ratio of 5 (incomplete shift), 0.6 uM Rex, 2 nM DNA, residues 1-209, label: 5' biotin (forward strand)); “binds” (no NADH/NAD+ added, complete shift of 2 nM DNA at 0.6 uM Rex, residues 1-209, label: 5' biotin (forward strand)).

The values above are taken from paper PMC4162614.
